Pooled drug test results. Numbers come from NIAID ChemDB, via PubChem.

All rows: tests in culture; agent: Mycobacterium avium; measure: MIC

Neighbouring rows are from separate reports. Blank or dashed fields: not listed here.

compound | conditions | strain | result
CCCCCCOc1ccc(NC(=O)OCCC[NH+]2CCCCC2)cc1 |  | MY330/88 | 16 µM
O=C(Nc1cccc(F)c1)c1ccc(Cl)cc1OS(=O)(=O)c1ccccc1 | 14 d | 330/88 | 500 µM
O=C(NCc1ccccc1)c1cc(Cl)cc(Cl)c1O | 21 d | ATCC 25291 | 125 µM
Clc1ccc(/C(Cn2ccnc2)=N/OCc2cccc3ccccc23)c(Cl)c1 |  | CIP103317 | >16 µg/mL
C[C@H]1COc2c(N3CCN(C)CC3)c(F)cc3c(=O)c(C(=O)O)cn1c23 |  | 36-1 | 1 µg/mL
COc1ccc(CSc2nnn(-c3ccc(Br)cc3)n2)cc1 |  | CNCTC MY330/88 | 125 µM
Cc1ccc(-n2c(=S)oc3ccc(Br)cc3c2=S)cc1 | 21 d | MY330/88 | 32 µM
CC(C)c1c(O)cc([C@H](N=C(N)N)C(=O)NCC(=O)O)cc1O |  | S-141 | 6.25 µg/mL
COc1cccc(NC(=O)OCCC[NH+]2CCCCC2)c1 |  | MY330/88 | 500 µM
Cc1ccc(-n2c(=O)oc3ccc(C)cc3c2=O)cc1 |  | CNCTC MY330/88 | 62.5 µM
Cc1ccc2oc(/C=N/N=C(\N)c3ccccn3)nc2c1 |  |  | >16 µg/mL
c1ccc(CCSc2ncnc3ccccc23)cc1 |  | CNCTC MY66/72 | 32 µM
CCCOc1ccc(NC(=O)OCCC[NH+]2CCCCC2)cc1 |  | MY330/88 | 500 µM
Cn1cnnc1SCc1ccccc1 |  | MY330/88 | >1000 µM
Clc1ccc(CNc2ccccc2-n2ccnc2)cc1 |  | 103317 | 26.9 µM
C=CCSc1ncnc2ccccc12 |  | CNCTC MY66/72 | 250 µM
c1ccc(CO/N=C(\Cn2ccnc2)c2ccccc2)cc1 |  | CIP103317 | 8 µg/mL
CC(C)c1ccc(NC(=O)CCC(=O)Nc2ccc(C(C)C)cc2)cc1 |  |  | 63 µM
COc1ccc(CSc2nnn(-c3ccc(C)cc3)n2)cc1 |  | CNCTC MY330/88 | 62.5 µM
Clc1ccc(CNc2cccc(N3CCOCC3)c2)cc1 |  | 103317 | >16 µg/mL
O=C(CCC(=O)Nc1cccc(Cl)c1)Nc1cccc(Cl)c1 |  |  | >1000 µM
COc1ccc(-n2nnc(SCc3ccccc3)n2)cc1 |  | CNCTC MY330/88 | 125 µM
Fc1ccc(-n2c(=S)oc3ccc(F)cc3c2=S)cc1 | 14 d | MY330/88 | 16 µM
Clc1ccc(CNc2ccccc2N2CCSCC2)cc1 |  | 103317 | >16 µg/mL
O=c1oc2cc(Cl)ccc2c(=O)n1-c1ccc(Br)cc1 |  | CNCTC MY330/88 | 8 µM
CCSc1nnnn1-c1ccc(C)cc1 |  | 80/72 | 1000 µM
Clc1ccc2c(c1)nc1cc(Nc3ccccc3)c(=NC3CCCCC3)cc-1n2-c1ccccc1 |  | 1389 | 3.3 µg/mL
COc1ccc(CSc2ncn[nH]2)cc1 |  | MY330/88 | 1000 µM
O=c1oc2ccccc2c(=O)n1-c1cccc([N+](=O)[O-])c1 |  | CNCTC MY330/88 | 31 µM
CCCCOc1ccc(NC(=O)OCCC[NH+]2CCCCC2)cc1 |  | MY330/88 | 125 µM
O=[N+]([O-])c1cc(CSc2ncn[nH]2)cc([N+](=O)[O-])c1 |  | MY330/88 | 500 µM
CCSc1nnnn1-c1c(C)cc(C)cc1C |  | 80/72 | >1000 µM
S=c1oc2c(Cl)cc(Cl)cc2c(=S)n1-c1ccc(Cl)cc1 |  | 330/88 | 64 µM
c1ccc(CO/N=C(/Cn2ccnc2)c2ccccc2)cc1 |  | CIP103317 | 0.5 µg/mL
N/C(=N\N=C\c1ccncc1)c1cnccn1 |  |  | >16 µg/mL
Fc1ccc(/C(Cn2ccnc2)=N\OCc2ccccc2)cc1 |  | 103317 | 12.9 µM
CC(=O)NC[C@H]1CN(c2ccc(N3CCN(c4ccc([N+](=O)[O-])s4)CC3)c(F)c2)C(=O)O1 |  | ATCC 25291 | 0.25 µg/mL
O=C(Nc1ccccc1N1CCSCC1)c1ccc(-c2ccccc2)cc1 |  | 103317 | 82.5 µM
Cc1ccc(NC(=O)CCC(=O)Nc2ccc(C)c(C)c2)cc1C |  |  | >1000 µM
Clc1ccc(/C(Cn2ccnc2)=N/OCc2cccc3ccccc23)c(Cl)c1 |  | 103317 | 19.5 µM
CO[C@H]1/C=C/O[C@@]2(C)Oc3c(C)c(O)c4c(O)c(cc(O)c4c3C2=O)NC(=O)/C(C)=C\C=C\[C@H](C)[C@H](O)[C@@H](C)[C@@H](O)[C@@H](C)[C@H](OC(C)=O)[C@@H]1C |  | Forlanini | 1 µg/mL
N/C(=N\N=C\c1ccccn1)c1cnccn1 |  |  | >16 µg/mL
Cc1ccc(-n2c(=S)oc3ccc(C)cc3c2=S)cc1 | 14 d | MY330/88 | 2 µM
S=c1[nH]c2ccccc2c(=S)n1-c1ccc(Br)cc1 |  | 330/88 | 32 µM
NC(=S)N=Nc1c(S)n(-c2ccccc2)c2ccccc12 |  | CNCTC MY80/72 | 63 µM
CC(C)CSc1ncnc2ccccc12 |  | D 5/93 | 125 µM
Cc1cccc(C(N)=Nc2nc(-c3ccccn3)cc3ccccc23)c1 |  | 5718 | 2 µg/mL
CCOc1ccc(NC(=O)OCCC[NH+]2CCCCC2)cc1 |  | MY330/88 | 1000 µM
Clc1ccc(CSc2ncn[nH]2)cc1 |  | MY330/88 | 250 µM
Cc1cccc(C(=O)NCc2ccccn2)c1O | 21 d | ATCC 25291 | 250 µM
CN1CCN(c2cccc(NCc3ccc(Cl)cc3)c2)CC1 |  | 103317 | 16 µg/mL
c1ccc(/C(Cn2ccnc2)=N\OCc2ccc(-c3ccccc3)cc2)cc1 |  | CIP103317 | 16 µg/mL
N#Cc1ccc(-n2c(=O)oc3ccccc3c2=O)cc1 |  | CNCTC MY330/88 | 62.5 µM
CCCCSc1nnnn1-c1cccc(C)c1 |  | 80/72 | 250 µM
O=C(Nc1ccc(Br)cc1)c1ccc(Br)cc1OS(=O)(=O)c1ccccc1 | 21 d | 330/88 | 8 µM
N/C(=N\N=C\c1cc2ccccc2o1)c1cnccn1 |  |  | >16 µg/mL
Cc1ccc2oc(=S)n(-c3ccc(Cl)cc3)c(=S)c2c1 | 21 d | MY330/88 | 4 µM
S=c1[nH]c2ccccc2c(=S)n1-c1ccc(Cl)cc1 |  | 330/88 | 64 µM
Cc1ccc(CSc2nnn(-c3ccccc3)n2)cc1 |  | CNCTC MY330/88 | 62.5 µM
N#Cc1ccc(CSc2ncn[nH]2)cc1 |  | MY330/88 | 1000 µM
Cc1ccc2c(=O)n(-c3ccc(C#N)cc3)c(=O)oc2c1 |  | CNCTC MY330/88 | 16 µM
c1ccc(/C(Cn2ccnc2)=N/OCc2ccc(-c3ccccc3)cc2)cc1 |  | CIP103317 | 8 µg/mL
COc1ccc(C(=O)NCc2cccnc2)c(O)c1 | 14 d | ATCC 25291 | 1000 µM
Clc1ccc(C(Cn2ccnc2)OCc2cccc3ccccc23)c(Cl)c1 |  | 103317 | 2.52 µM
CCCSc1ncnc2ccccc12 |  | D 5/93 | 125 µM
CCCCSc1nnnn1-c1c(C)cc(C)cc1C |  | 80/72 | >1000 µM
CCOc1c(N2CCC(C(C)(C)N)C2)c(F)cc2c(=O)c(C(=O)O)cn(C3CC3)c12 |  | LR114F | 0.25 µg/mL
Cc1ccc2oc(=O)n(-c3ccc(C(F)(F)F)cc3)c(=O)c2c1 |  | CNCTC MY330/88 | 8 µM
O=C(NCc1ccccc1)c1ccccc1O | 14 d | ATCC 25291 | 125 µM
CN[C@@H]1[C@H](O[C@H]2[C@H](O[C@H]3[C@H](O)[C@@H](O)[C@H](N=C(N)N)[C@@H](O)[C@@H]3N=C(N)N)O[C@@H](C)[C@]2(O)C=O)O[C@@H](CO)[C@H](O)[C@H]1O |  | Strain 1 | 3.13 µg/mL
CN1C(=S)C(=O)c2ccccc21 |  | CNCTC MY80/72 | 63 µM
CC(C)Sc1ncnc2ccccc12 |  | D 5/93 | 63 µM
O=C(Nc1ccccc1N1CCSCC1)c1ccc(Cl)cc1 |  | 103317 | >16 µg/mL
Cc1ccc2oc(=S)n(-c3cccc(F)c3)c(=S)c2c1 | 21 d | MY330/88 | 8 µM
O=c1oc2ccc(F)cc2c(=O)n1-c1ccc(C(F)(F)F)cc1 |  | CNCTC MY330/88 | 8 µM
CCCSc1nnnn1-c1ccc(C)c(C)c1 |  | 80/72 | 250 µM
CCn1c(S)c(N=NC(N)=O)c2ccccc21 |  | CNCTC D5/93 | 125 µM
CCCCOc1cccc(NC(=O)OCCC[NH+]2CCCCC2)c1 |  | MY330/88 | 62.5 µM
Fc1ccc(/C(Cn2ccnc2)=N\OCc2cccc3ccccc23)cc1 |  | 103317 | 22.2 µM
CCCCc1ccc(NC(=O)CCC(=O)Nc2ccc(CCCC)cc2)cc1 |  |  | 63 µM
O=C(Nc1ccc(Cl)c(Cl)c1)c1cc(Cl)ccc1OS(=O)(=O)c1ccccc1 | 14 d | 330/88 | 16 µM
Clc1ccc(CSc2ncn[nH]2)cc1Cl |  | MY330/88 | 1000 µM
CC(C)(C)n1cc(C(=O)O)c(=O)c2cc(F)c(N3CCNCC3)nc21 |  | LR114F | 0.5 µg/mL
O=C(Nc1ccc(Cl)c(Cl)c1)c1ccc(Cl)cc1OS(=O)(=O)c1ccccc1 | 14 d | 330/88 | 62.5 µM
O/N=C(\Cn1ccnc1)c1ccc(Cl)cc1 |  | 103317 | 33.9 µM
CC[C@H]1OC(=O)[C@H](C)C(=O)[C@H](C)[C@@H](O[C@@H]2O[C@H](C)C[C@H](N(C)C)[C@H]2O)[C@](C)(OC)C[C@@H](C)C(=O)[C@H](C)[C@H]2N(NCCCc3ccnc4ccccc34)C(=O)O[C@]12C |  | Isolate 1110 | 2.5 µg/mL
S=c1oc2c(Cl)cc(Cl)cc2c(=S)n1-c1cccc(Cl)c1 |  | 330/88 | 32 µM
CCCCCCCOc1ccc(NC(=O)OCCC[NH+]2CCCCC2)cc1 |  | MY330/88 | 16 µM
O=C(Nc1cccc(C(F)(F)F)c1)c1ccc(Cl)cc1OS(=O)(=O)c1ccccc1 | 21 d | 330/88 | 125 µM
O=C(NCc1cccnc1)c1cc(Br)cc(Br)c1O | 21 d | ATCC 25291 | 1000 µM
O=C(Nc1cccc(C(F)(F)F)c1)c1cc(Cl)ccc1OS(=O)(=O)c1ccccc1 | 14 d | 330/88 | 62.5 µM
Clc1ccc(CNc2cccc(N3CCOCC3)c2)cc1 |  | 103317 | 50.1 µM
CCn1c(S)c(N=NC(N)=[NH2+])c2ccccc21 |  | CNCTC D5/93 | 250 µM

For reference, 13 entries again:

| compound | conditions | strain | result |
|---|---|---|---|
| Clc1ccc(CNc2cccc(N3CCOCC3)c2)cc1 |  | 103317 | 50.1 µM |
| Clc1ccc(CNc2cccc(N3CCOCC3)c2)cc1 |  | 103317 | >16 µg/mL |
| CCCCSc1nnnn1-c1c(C)cc(C)cc1C |  | 80/72 | >1000 µM |
| CC[C@H]1OC(=O)[C@H](C)C(=O)[C@H](C)[C@@H](O[C@@H]2O[C@H](C)C[C@H](N(C)C)[C@H]2O)[C@](C)(OC)C[C@@H](C)C(=O)[C@H](C)[C@H]2N(NCCCc3ccnc4ccccc34)C(=O)O[C@]12C |  | Isolate 1110 | 2.5 µg/mL |
| Cc1ccc2oc(/C=N/N=C(\N)c3ccccn3)nc2c1 |  |  | >16 µg/mL |
| Cc1ccc2oc(=S)n(-c3ccc(Cl)cc3)c(=S)c2c1 | 21 d | MY330/88 | 4 µM |
| O=c1oc2ccc(F)cc2c(=O)n1-c1ccc(C(F)(F)F)cc1 |  | CNCTC MY330/88 | 8 µM |
| Clc1ccc(CSc2ncn[nH]2)cc1 |  | MY330/88 | 250 µM |
| S=c1[nH]c2ccccc2c(=S)n1-c1ccc(Cl)cc1 |  | 330/88 | 64 µM |
| Fc1ccc(/C(Cn2ccnc2)=N\OCc2ccccc2)cc1 |  | 103317 | 12.9 µM |
| c1ccc(/C(Cn2ccnc2)=N\OCc2ccc(-c3ccccc3)cc2)cc1 |  | CIP103317 | 16 µg/mL |
| O=[N+]([O-])c1cc(CSc2ncn[nH]2)cc([N+](=O)[O-])c1 |  | MY330/88 | 500 µM |
| O=C(NCc1ccccc1)c1ccccc1O | 14 d | ATCC 25291 | 125 µM |